Reference: publication PMC9235892 (Virulence, 2022)

How the values were obtained:
[1] = tested on: SARS-CoV-2; settings: from CC50 and EC50, Vero CCL81
[2] = tested on: SARS-CoV-2 B (PANGO lineage); assay: Resistant variant selection by serial passage in Vero CCL81; settings: eight passages, 3, 10 then 32 µM

| Structure (SMILES) | selectivity index (SI) [1] | acquisition of resistance by virus passaged in presence of compound [2] |
| --- | --- | --- |
| CN1CCN(C[C@H](O)CO[C@H]2CC[C@@]3(C)C(CCC4C3CC[C@]3(C)C(=O)CCC43)C2)CC1 (stereo partly drawn) [LNB167] | 154 | had not acquired resistance |
| CN1CCN(C[C@@H](O)CO[C@H]2CC[C@@]3(C)C(CCC4C3CC[C@]3(C)C(=O)CCC43)C2)CC1 (stereo partly drawn) [LNB169] | – | acquired resistance to the compound |
